This is an account of results in PMC10618370, “Mur ligase F as a new target for the flavonoids quercitrin, myricetin, and (–)-epicatechin” (Journal of Computer-Aided Molecular Design, 2023).

Some entries repeat one wording, which the source may state once for all of them.

A short description of the data set: Assay interference screen (malachite green-based assay). Conditions: 100 µM compound, absorbance at 650 nm.
Consider `O=c1cc(-c2ccc(O)c(O)c2)oc2cc(OC3OC(CO)C(O)C(O)C3O)cc(O)c12` (stereo not drawn) [Compound 15], for which the “Interference with the malachite green assay (in words)” value (“Interference” below) was “increased the absorbance at 650 nm”.

For the compound `Oc1cc(O)c2c(c1)O[C@H](c1ccc(O)c(O)c1)[C@@H](O)C2` [Compound 22, (+)-catechin], the “Interference” value is given as “increased the absorbance at 650 nm”.

For the compound `COc1cc([C@@H]2[C@H]3CO[C@@]4(O)C(=O)[C@@H]2C=C([C@H]2Oc5cc(O)cc(O)c5C(=O)[C@@H]2O)[C@@H]34)ccc1O` [Compound 24, silydianin], the “Interference” value was “increased the absorbance at 650 nm”.
